Amino acid sequences for entries named in this document (tags omitted).
UniProt P04925, whole entry: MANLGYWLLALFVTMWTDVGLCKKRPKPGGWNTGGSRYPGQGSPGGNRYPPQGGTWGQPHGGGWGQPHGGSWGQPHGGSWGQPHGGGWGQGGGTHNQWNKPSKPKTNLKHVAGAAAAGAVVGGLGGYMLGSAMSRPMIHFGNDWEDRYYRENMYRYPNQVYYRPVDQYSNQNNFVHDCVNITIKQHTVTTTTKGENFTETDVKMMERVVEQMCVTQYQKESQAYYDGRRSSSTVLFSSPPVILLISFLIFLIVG

The compounds below were run against Major prion protein (Mus musculus) (UniProt P04925) (assay: Antiprion activity against mouse recombinant PrP expressed in Fukuoka-1 stain infected mouse GT1-7 cells assessed as remaining PrP-res level at 10 uM after 72 hrs by Western blotting relative to control).
Type: cell-based
In short: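 GT+FK cells (GT1-7 neuronal line persistently infected with Fukuoka-1 agent) in DMEM/10% FBS, 37°C, 5% CO2; 1.5 × 10⁵ cells/well, dosed 15 h after plating with compound from fresh 10 mM DMSO stock (vehicle 0.1%) for 72 h. Lysates in Triton X-100/deoxycholate buffer adjusted to 2 mg/ml protein; PrP^Sc by Western blot with M-20 antibody, densitometry versus solvent control; effective if <70% of control; ≥2 independent experiments.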
C=CCNC(=O)NC(=O)CSc1nc2ccccc2n1CC(C)C gave an Activity of 56.7%. In the case of O=C(CSc1ncnc2sc3c(c12)CCC3)NCC1CCCO1 (stereo not drawn), the Activity is reported as 93.7%. CC(=O)N(Cc1ccccc1)Cc1cc2cccc(C)c2n2nnnc12 was tested, and the Activity was 95.7%.
